Measured values from several laboratories, pooled; numbers as filed in NIAID ChemDB.

Shared fields: enzyme or target tests

Neighbouring rows are from separate reports. Inhibition is in % at the dose shown (toxicity tests: loss of growth or viability). Fold resistance has wild type as its base. ICn is the concentration giving n% inhibition.

CC(=O)N1CCn2c(nc(C(=O)NCc3ccc(F)cc3)c(O)c2=O)C1(C)C ; protein: Integrase ; read by: ELISA ; read-out: IC50 ; species: HIV-1 ; value: <10 µM
Nc1nc2c(ncn2[C@@H]2O[C@H](COP(=O)(O)OC3C[C@H](n4cnc5c(N)ncnc54)O[C@@H]3CO)[C@@H](O)[C@H]2O)c(=O)[nH]1 ; protein: RNase H ; read by: RNase H ; read-out: inhibition ; species: HIV-1 ; dose: 50 µM ; value: 17%
Nc1ccn([C@H]2CC[C@@H](COP(=O)(O)OP(=O)(O)OP(=O)(O)OP(=O)(O)OC[C@@H]3CC[C@H](n4ccc(N)nc4=O)O3)O2)c(=O)n1 ; protein: Reverse transcriptase ; read by: nucleotide incorporation / radiometric ; read-out: fold resistance ; species: HIV ; changes: RT-K65R ; value: 5.26
CCCCN(CCCC)c1nc(OCCc2ccc([N+](=O)[O-])cc2)c2ncn([C@@H]3O[C@H](COP(O)(=S)O[C@H]4[C@@H](F)[C@H](n5cnc6c(N)ncnc65)O[C@@H]4CO)[C@@H](O)[C@H]3O)c2n1 ; protein: RNase H ; read by: RNase H ; read-out: inhibition ; species: HIV-1 ; dose: 50 µM ; value: 100%
CNc1ccccc1C(=O)O[C@H]1[C@@H](O)[C@H](n2cnc3c(N)ncnc32)O[C@@H]1COP(=O)(O)OP(=O)(O)OP(=O)(O)OP(=O)(O)OC[C@@H]1CC[C@H](n2cnc3c(=O)[nH]c(N)nc32)O1 ; protein: Reverse transcriptase ; read by: nucleotide incorporation / radiometric ; read-out: fold resistance ; species: HIV ; changes: RT-D67N K70R ; value: 0.156
CCNC(=O)N1CCn2c(nc(C(=O)NCc3ccc(F)cc3)c(O)c2=O)C1(C)C ; protein: Integrase ; read by: ELISA ; read-out: IC50 ; species: HIV-1 ; value: <10 µM
CC[C@H](C)[C@@H](C(=O)OC)N1C[C@@H]2O[C@H](C(=O)N3CCCCC3)[C@@H](O2)C1=O ; protein: Protease ; read by: FRET ; read-out: inhibition ; species: HIV-1 ; dose: 10 µM ; value: 0%
C=CC(C)(C)c1[nH]c2ccccc2c1C1=C(O)C(=O)C(c2c(C(C)(C)C=C)[nH]c3ccccc23)=C(O)C1=O ; protein: Protease ; read-out: fold resistance ; species: HIV ; changes: PR-V82T ; value: 0.72
COc1ccc2nc3cc(Cl)ccc3c(NCCCCCN(CCCN)CCCCN)c2c1 ; protein: Tat:TAR/LTR ; read by: gel ; read-out: IC50 ; species: HIV-1 ; value: 0.039 µM
N[C@H]1[C@@H](O[C@H]2[C@H](O)[C@@H](O)[C@H](N)C[C@@H]2N)O[C@H](CNC(=O)c2ccc3ccc4cccc5ccc2c3c45)[C@@H](O)[C@@H]1O ; protein: Rev:RRE ; read by: fluorescence ; read-out: Ki ; species: HIV-1 ; value: 0.24 µM
CCCCCCCCC[C@H]1O[C@@H]1C(=O)O ; protein: Protease ; read by: HPLC ; read-out: inhibition ; species: HIV-2 ; dose: 500 µg/mL ; value: 88%
COC(=O)c1ccc(C(=O)NCc2cccc(C(F)(F)F)c2)c(O)c1O ; protein: Integrase ; read by: strand transfer ; read-out: IC50 ; species: HIV ; value: <0.5 µM
Nc1nc2c(ncn2[C@@H]2O[C@H](COP(=O)(O)O[C@H]3[C@@H](O)[C@H](n4cnc5c(=O)[nH]c(N)nc54)O[C@@H]3CO)[C@@H](O)[C@H]2O)c(=O)[nH]1 ; protein: RNase H ; read by: RNase H ; read-out: inhibition ; species: HIV-1 ; dose: 50 µM ; value: 89%
Nc1ncnc2c1ncn2[C@H]1CC[C@@H](COP(=O)(O)OP(=O)(O)OP(=O)(O)OP(=O)(O)OC[C@@H]2CC[C@H](n3cnc4c(N)ncnc43)O2)O1 ; protein: Reverse transcriptase ; read by: nucleotide incorporation / radiometric ; read-out: fold resistance ; species: HIV ; changes: RT-D67N K70R T215Y K219Q ; value: 0.1
O=C([C@@H]1O[C@]2(c3ccccc3)CN(C(c3ccccc3)c3ccccc3)C(=O)[C@H]1O2)N1CCN(CCO)CC1 ; protein: Protease ; read by: FRET ; read-out: inhibition ; species: HIV-1 ; dose: 1 µM ; value: 0%
CN1CCn2c(nc(C(=O)NCc3ccc(F)cc3)c(O)c2=O)C(N(C)C(=O)C(=O)N2CCOCC2)C1 ; protein: Integrase ; read by: ELISA ; read-out: IC50 ; species: HIV-1 ; value: <10 µM
NCCCCN(CCCN)CCNc1c2ccccc2nc2ccccc12 ; protein: Tat:TAR/LTR ; read by: gel ; read-out: IC50 ; species: HIV-1 ; value: 0.023 µM
CCCCCCC[C@@H]1O[C@@H]1CO ; protein: Protease ; read by: HPLC ; read-out: inhibition ; species: HIV-2 ; dose: 500 µg/mL ; value: 58%
Nc1nc2c(ncn2[C@@H]2O[C@H](COP(O)(=S)O[C@H]3[C@@H](F)[C@H](n4cnc5c(N)ncnc54)O[C@@H]3CO)[C@@H](O)[C@H]2O)c(=O)[nH]1 ; protein: RNase H ; read by: RNase H ; read-out: inhibition ; species: HIV-1 ; dose: 50 µM ; value: 40%
O=C(NC1CC1)[C@@H]1O[C@@H]2CN(Cc3ccccc3)C(=O)[C@H]1O2 ; protein: Protease ; read by: FRET ; read-out: inhibition ; species: HIV-1 ; dose: 10 µM ; value: 0%
Nc1nc2c(ncn2[C@@H]2O[C@H](COCO[C@H]3[C@@H](O)[C@H](n4cnc5c(=O)[nH]c(N)nc54)O[C@@H]3CO)[C@@H](O)[C@H]2O)c(=O)[nH]1 ; protein: RNase H ; read by: RNase H ; read-out: inhibition ; species: HIV-1 ; dose: 50 µM ; value: 65%
CC1c2nc(C(=O)NCc3ccc(F)cc3)c(O)c(=O)n2CCN1C ; protein: Integrase ; read by: ELISA ; read-out: IC50 ; species: HIV-1 ; value: <10 µM
Nc1nc2c(ncn2[C@@H]2O[C@H](COP(O)(=S)OC3C[C@H](n4cnc5c(=O)[nH]c(N)nc54)O[C@@H]3CO)[C@@H](O)[C@H]2O)c(=O)[nH]1 ; protein: RNase H ; read by: RNase H ; read-out: inhibition ; species: HIV-1 ; dose: 50 µM ; value: 65%
COc1ccnc2[nH]cc(C(=O)C(=O)N3CCN(C(=O)c4ccccc4)C[C@H]3C)c12 ; protein: gp120 ; read by: ELISA ; strain or isolate: NL4-3 ; read-out: fold resistance ; species: HIV-1 ; changes: GP120-D185N ; value: 1
CC(C)=CCN1Cc2cccc3[nH]c(=S)n(c23)C[C@@H]1C ; protein: Reverse transcriptase ; read by: nucleotide incorporation ; read-out: fold resistance ; species: HIV ; changes: RT-W266S ; value: >185
Nc1ncnc2c1ncn2[C@@H]1O[C@H](COP(=O)(O)O[C@H]2[C@@H](O)[C@H](n3cnc4c(N)ncnc43)O[C@@H]2CO)[C@@H](O)[C@H]1O ; protein: RNase H ; read by: RNase H ; read-out: inhibition ; species: HIV-1 ; dose: 50 µM ; value: 6%
CC(C)(CS(=O)(=O)[O-])[NH2+]C(=O)C(CC(F)(OC(F)(F)C(F)(OC(F)(F)C(F)(OC(F)(F)C(F)(F)C(F)(F)F)C(F)(F)F)C(F)(F)F)C(F)(F)F)C(F)(OC(F)(F)C(F)(OC(F)(F)C(F)(OC(F)(F)C(F)(F)C(F)(F)F)C(F)(F)F)C(F)(F)F)C(F)(F)F ; protein: gp120 ; read by: ELISA ; read-out: inhibition ; species: HIV-1 ; dose: 100 µg/mL ; value: 88%
CCCCN(CCCC)c1nc2c(ncn2[C@@H]2O[C@H](COP(=O)(O)O[C@H]3[C@@H](F)[C@H](n4cnc5c(=O)[nH]c(N)nc54)O[C@@H]3CO)[C@@H](O)[C@H]2O)c(=O)[nH]1 ; protein: RNase H ; read by: RNase H ; read-out: inhibition ; species: HIV-1 ; dose: 50 µM ; value: 12%
C#CCNC(=O)[C@@H]1O[C@]2(c3ccccc3)CN(C(c3ccccc3)c3ccccc3)C(=O)[C@H]1O2 ; protein: Protease ; read by: FRET ; read-out: inhibition ; species: HIV-1 ; dose: 10 µM ; value: 0%
Oc1cc(O)cc(Oc2c(O)cc(O)c3c2Oc2c(O)cc(Oc4c(O)cc(Oc5c(O)cc(O)c6c5Oc5c(O)cc(O)cc5O6)cc4O)cc2O3)c1 ; protein: Reverse transcriptase + Protease ; read by: HPLC ; read-out: IC50 ; species: HIV-1 ; value: 36.9 µM
CCCCNC(=O)[C@H](CC(C)C)N1C[C@@H]2O[C@H](C1=O)[C@H](C(=O)N1CCCCC1)O2 ; protein: Protease ; read by: FRET ; read-out: inhibition ; species: HIV-1 ; dose: 10 µM ; value: 0%
Cc1ccc(Cl)cc1Nc1nc(C(F)(F)F)ccc1C(=O)NN1CCN(c2cccc(Cl)c2)CC1 ; protein: RNase H ; read by: RNase H / absorbance ; read-out: fold resistance ; species: HIV-1 ; changes: A502F ; value: 2.6
Fc1ccc(Nc2ccnc(-c3ccncc3)n2)cc1F ; protein: Capsid ; read by: AlphaScreen / luminescence ; read-out: IC50 ; species: HIV-1 ; value: 21 µM
O=C([C@@H]1O[C@@H]2CN(Cc3ccccc3)C(=S)[C@H]1O2)N1CCCCC1 ; protein: Protease ; read by: FRET ; read-out: inhibition ; species: HIV-1 ; dose: 10 µM ; value: 0%
COC(=O)N(C)C1CN(C)CCn2c1nc(C(=O)NCc1ccc(F)cc1)c(O)c2=O ; protein: Integrase ; read by: ELISA ; read-out: IC50 ; species: HIV-1 ; value: <10 µM
COC(=O)c1ccc(C(=O)NCc2ccc(C(F)(F)F)cc2)c(O)c1O ; protein: Integrase ; read by: strand transfer ; read-out: IC50 ; species: HIV ; value: <2 µM
CN(C)C(=O)CN1CCn2c(nc(C(=O)NCc3ccc(F)cc3)c(O)c2=O)C1(C)C ; protein: Integrase ; read by: ELISA ; read-out: IC50 ; species: HIV-1 ; value: <10 µM
O=C(NCc1ccccc1)c1ccccc1O ; protein: Integrase ; read by: strand transfer ; read-out: IC50 ; species: HIV ; value: <0.5 µM
CCCCNC(=O)[C@@H]1O[C@]2(c3ccccc3)CN(C(c3ccccc3)c3ccccc3)C(=O)[C@H]1O2 ; protein: Protease ; read by: FRET ; read-out: inhibition ; species: HIV-1 ; dose: 1 µM ; value: 0%
CCC(=C/[C@H](C)C/C=C/C(C)=C/[C@@H](C)C(=O)[C@@H](C)[C@H](O)[C@@H](C)C/C(C)=C/C(=O)O)/C=C/[C@@H]1OC(=O)C=C[C@@H]1C ; protein: Rev:RRE ; read by: luciferase ; read-out: IC50 ; species: HIV-1 ; value: 0.0005 µM
COC(=O)[C@H](CC(C)C)N1C[C@@H]2O[C@H](C1=O)[C@H](C(=O)N1CCCCC1)O2 ; protein: Protease ; read by: FRET ; read-out: inhibition ; species: HIV-1 ; dose: 10 µM ; value: 0%
Nc1ccn([C@@H]2CS[C@H](COP(=O)(O)OP(=O)(O)OP(=O)(O)O)O2)c(=O)n1 ; protein: Reverse transcriptase ; read by: radiometric ; read-out: fold resistance ; species: HIV ; changes: RT-K65R K103N ; value: 2
Nc1nc2c(ncn2[C@H]2CC[C@@H](COP(=O)(O)OP(=O)(O)OP(=O)(O)O)O2)c(=O)[nH]1 ; protein: Reverse transcriptase ; read by: nucleotide incorporation / radiometric ; read-out: IC50 ; species: HIV ; changes: RT-M41L T215Y ; value: 0.082 µM

Repeating the final 4 entries:

{"compound": "CCC(=C/[C@H](C)C/C=C/C(C)=C/[C@@H](C)C(=O)[C@@H](C)[C@H](O)[C@@H](C)C/C(C)=C/C(=O)O)/C=C/[C@@H]1OC(=O)C=C[C@@H]1C", "protein": "Rev:RRE", "read by": "luciferase", "read-out": "IC50", "species": "HIV-1", "value": "0.0005 µM"}
{"compound": "COC(=O)[C@H](CC(C)C)N1C[C@@H]2O[C@H](C1=O)[C@H](C(=O)N1CCCCC1)O2", "protein": "Protease", "read by": "FRET", "read-out": "inhibition", "species": "HIV-1", "dose": "10 µM", "value": "0%"}
{"compound": "Nc1ccn([C@@H]2CS[C@H](COP(=O)(O)OP(=O)(O)OP(=O)(O)O)O2)c(=O)n1", "protein": "Reverse transcriptase", "read by": "radiometric", "read-out": "fold resistance", "species": "HIV", "changes": "RT-K65R K103N", "value": "2"}
{"compound": "Nc1nc2c(ncn2[C@H]2CC[C@@H](COP(=O)(O)OP(=O)(O)OP(=O)(O)O)O2)c(=O)[nH]1", "protein": "Reverse transcriptase", "read by": "nucleotide incorporation / radiometric", "read-out": "IC50", "species": "HIV", "changes": "RT-M41L T215Y", "value": "0.082 µM"}